Pooled drug test results. Numbers come from NIAID ChemDB, via PubChem.

Shared fields: whole-cell or culture tests; species: Hepatitis B virus; read-out: inhibition

Inhibition is in % at the dose shown (toxicity tests: loss of growth or viability). Two numbers with a dash give a range or band. An empty or dashed field is not shown. Neighbouring rows are from separate reports.

compound,cells,strain or isolate,read by,tested at,result
CCN(CC)CCOc1ccc2nc(SCc3ccccc3)n(Cc3ccco3)c(=O)c2c1,HepG2 2.2.15,-,PCR,0.8 µM,67.45%
COC(=O)[C@]1(C)CC[C@]2(C)CC[C@]3(C)C4=CC=C5C(=CC(=O)C(O)=C5C)[C@]4(C)CC[C@@]3(C)[C@@H]2C1,HepG2 2.2.15,-,PCR,25 µM,9.8%
CCOC(=O)CC1COP(=O)(CO[C@H](C)Cn2cnc3c(NC(=O)CC(C)C)ncnc32)OC1,HepaRG,Genotype D,PCR,1 µM,30–50%
CC1=C(O)C(=O)C=C2C1=CC=C1[C@@]2(C)CC[C@@]2(C)[C@@H]3C[C@](C)(C(=O)N4CCCC4)CC[C@]3(C)CC[C@]12C,HepG2 2.2.15,-,PCR,25 µM,25.9%
Nc1ccn([C@@H]2CS[C@H](CO)O2)c(=O)n1,HepG2.2.15,-,ELISA,100 µg/mL,33.56%
C[C@@H]1CC[C@@]2(OC1)O[C@H]1C[C@H]3[C@@H]4CC=C5C[C@@H](O[C@@H]6O[C@H](CO)[C@H](O[C@@H]7O[C@@H](C)[C@H](O)[C@@H](O)[C@H]7O)[C@@H](O)[C@H]6O[C@@H]6O[C@@H](C)[C@H](O)[C@@H](O)[C@H]6O)CC[C@]5(C)[C@H]4CC[C@]3(C)[C@H]1[C@@H]2C,HepG2 2.2.15,-,ELISA / antigen,35 µM,40%
Nc1nc(=O)n([C@@H]2CS[C@H](CO)O2)cc1F,HepAD38,-,-,0.3 µM,90%
CNC(=O)[C@]1(C)CC[C@]2(C)CC[C@]3(C)C4=CC=C5C(=CC(=O)C(O)=C5C)[C@]4(C)CC[C@@]3(C)[C@@H]2C1,HepG2 2.2.15,-,PCR,25 µM,13.2%
Nc1ccn([C@@H]2CS[C@H](CO)O2)c(=O)n1,HepG2,WILD TYPE,-,0.1 µM,94%
O=C(N[C@H](CO)Cc1ccccc1)/C(NC(=O)c1ccc(Cl)cc1Cl)=C(/Br)c1ccccc1,HepG2 2.2.15,-,PCR,1 µM,63.13%
Nc1nc2c(ncn2CCC(CO)CO)c(=O)[nH]1,HepG2,WILD TYPE,-,5 µM,41%
O=c1[nH]c(=O)n([C@H]2C[C@H](F)[C@@H](CO)O2)cc1I,-,-,-,10 µg/mL,60%
CCC(CCC(C)C1CCC2C3C[C@@H](O)[C@@]4(O)C[C@@H](O)CCC4(C)C3CCC12C)C(C)C,HepG2 2.2.15,-,antigen,6.25 µg/mL,3.27%
CCCCCCC(=O)CCCCCC/C=C/CC(O)C(O)C(N)(CO)C(=O)O,-,-,-,20 µM,80%